Test results taken from patent US20110251085A1, “IN VITRO METHOD TO DETERMINE WHETHER A DRUG CANDIDATE ACTIVE AGAINST A TARGET PROTEIN IS ACTIVE AGAINST A VARIANT OF SAID PROTEIN” (VIVALIS, priority 2008, published 2011).

Key:
Experiment in all cases: cell-based or functional assay
[1] = molecular target: NS5BΔ21 (genotype 1b, native) fused to the yeast Gal4 DNA Binding Domain (pVVS478) (yeast; hepatitis C virus genotype 1b), P26662
[2] = molecular target: single chain NS4A-NS3 protease A156V mutant fused to Gal4 DBD (pVVS781) (yeast; hepatitis C virus genotype 1b), P26662
[3] = molecular target: single chain NS4A-NS3 full length A156V mutant fused to Gal4 DBD (pVVS783) (yeast; hepatitis C virus genotype 1b), P26662

B1: 3D-sensor N21C272 fused to the VP16 activation domain (peptide)
chain: DGCARCVASVQLYGD
modifications: not checked
Signal/Background [1]: 16 | luciferase activity over background without the 3D sensor-VP16AD (times background) [1]: 17 | luciferase expression (uninhibited signal) [1]: 115000 RLU

B2: 3D-sensor V7-62 fused to the VP16 activation domain (peptide)
chain: WRPYYTVLCALASWH
modifications: not checked
luciferase activity over background without the 3D sensor-VP16AD (times background) [2]: 33

B3: 3D-sensor H5-34 fused to the VP16 activation domain (peptide)
chain: PSNHRQSTRSTPWLW
modifications: not checked
luciferase activity over background without the 3D sensor-VP16AD (times background) [3]: 56
